Results: ChEMBL document CHEMBL4376826, “Isolation, Structural Identification, Synthesis, and Pharmacological Profiling of 1,2-trans-Dihydro-1,2-diol Metabolites of the Utrophin Modulator Ezutromid” (J Med Chem, 2020)

Test system: CYP1A1/2
Assay: Induction of CYP1A1/2 enzymes in minipig assessed as increase in EROD enzyme activity at 500 mg/kg/day, po for 39 weeks relative to control
Format: ADME, organism-based, Sus scrofa domesticus
Conditions: pig, in vivo, read-out: FC

fold induction at 6552 h: 2.1
SMILES: CCS(=O)(=O)c1ccc2oc(-c3ccc4ccccc4c3)nc2c1 [EZUTROMID]
